# Values from PubChem BioAssay AID1224833 (University of Georgia, 2016)
# Test: 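Host factors restraining rotavirus as candidate antiviral genes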 (primary screen)
# Cells: monkey MA104 kidney cells
# Reagent: siRNA pool against human genes, 50 nM
# Duration: 48 h knock-down before infection; read 24 h after infection
# Treatment: infection with rotavirus strain RV3 two days after transfection; infectious dose for this stage not given
# Detection: 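z-score of rotavirus antigen signal per well, from a fluorescent immunoassay, relative to non-targeting control wells on the same plate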
# Direction: z-score vs non-targeting control: higher = more rotavirus replication than with non-targeting control
# Hit rule: In these data the active calls have z-score vs non-targeting control at about -1 or lower, or at about 1 or higher
# Calls: active = z-score beyond 1 either way; inactive = z-score within 1 of zero
# In all, the deposit lists about 12,000 reagents; this is a random part of them. In the full data, about 5,600 (46%) were called active. 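Active calls cover z-scores past 1 in both directions, so they include lowered as well as raised rotavirus replication.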 Reagent sequences are not shown.
gene symbol,z-score vs non-targeting control,outcome
DGCR2 (GeneID 9993),-1.41,active
HLA-DPA1 (GeneID 3113),-0.514,inactive
ACADL (GeneID 33),0.735,inactive
CABLES2 (GeneID 81928),-2.43,active
EIF4G1 (GeneID 1981),1.14,active
SYT8 (GeneID 90019),0.188,inactive
RBMS1 (GeneID 5937),-0.359,inactive
NEUROG3 (GeneID 50674),2.36,active
NOMO3 (GeneID 408050),-0.575,inactive
MYO9A (GeneID 4649),-1.63,active
MCM2 (GeneID 4171),-1.81,active
BRD1 (GeneID 23774),0.822,inactive
SCTR (GeneID 6344),-0.692,inactive
PELI2 (GeneID 57161),0.289,inactive
SLC17A9 (GeneID 63910),-2.13,active
ATXN3 (GeneID 4287),-0.807,inactive
IGDCC3 (GeneID 9543),2.17,active
PLLP (GeneID 51090),-0.664,inactive
LGALS9C (GeneID 654346),-2.95,active
LAMP5 (GeneID 24141),0.0491,inactive
HAPLN4 (GeneID 404037),-1.7,active
CFAP47 (GeneID 286464),0.0511,inactive
IL17RD (GeneID 54756),-0.939,inactive
CNKSR3 (GeneID 154043),-0.174,inactive
OR4K14 (GeneID 122740),1.54,active
GPR137 (GeneID 56834),0.202,inactive
H2AC17 (GeneID 8336),0.0555,inactive
UQCC4 (GeneID 283951),-1.57,active
OR7A5 (GeneID 26659),0.416,inactive
WDR46 (GeneID 9277),-0.954,inactive
WFDC6 (GeneID 140870),-0.0845,inactive
SPAG7 (GeneID 9552),0.198,inactive
IHO1 (GeneID 339834),1.5,active
PLS1 (GeneID 5357),-0.306,inactive
CCL21 (GeneID 6366),1.07,active
TNP2 (GeneID 7142),0.572,inactive
LIX1L (GeneID 128077),0.647,inactive
PTGES2 (GeneID 80142),-1.22,active
GPX4 (GeneID 2879),-0.507,inactive
CABS1 (GeneID 85438),0.974,inactive
CTXN3 (GeneID 613212),-1.17,active
NMNAT1 (GeneID 64802),1.62,active
MESP2 (GeneID 145873),-0.467,inactive
VBP1 (GeneID 7411),-1.14,active
STMN4 (GeneID 81551),0.681,inactive
NLRP12 (GeneID 91662),0.674,inactive
H3-3B (GeneID 3021),0.156,inactive
CHAD (GeneID 1101),0.342,inactive
IFIT1B (GeneID 439996),0.013,inactive
KRT40 (GeneID 125115),-1.32,active
SNX20 (GeneID 124460),1.75,active
CCDC152 (GeneID 100129792),-1.43,active
SLC6A5 (GeneID 9152),0.608,inactive
PMCH (GeneID 5367),0.0809,inactive
ACER3 (GeneID 55331),0.508,inactive
GNRH1 (GeneID 2796),-1.33,active
LILRB3 (GeneID 11025),-1.67,active
RFX2 (GeneID 5990),0.804,inactive
IARS2 (GeneID 55699),-1.79,active
LRRC73 (GeneID 221424),-0.0936,inactive
ZC3H4 (GeneID 23211),-0.399,inactive
TCP10L (GeneID 140290),-0.597,inactive
PRMT2 (GeneID 3275),1.02,active
RTN2 (GeneID 6253),1.36,active
TM9SF2 (GeneID 9375),-0.805,inactive
HOXB9 (GeneID 3219),-0.721,inactive
TEDDM1 (GeneID 127670),0.573,inactive
REG3G (GeneID 130120),-0.651,inactive
DDT (GeneID 1652),0.539,inactive
ARSF (GeneID 416),1.54,active
ADH1A (GeneID 124),-2.19,active
TADA1 (GeneID 117143),0.545,inactive
RNF212 (GeneID 285498),0.637,inactive
VASH1 (GeneID 22846),-1.45,active
HNRNPR (GeneID 10236),0.305,inactive
CHST11 (GeneID 50515),1.63,active
LAMA2 (GeneID 3908),-3.36,active
H2BC3 (GeneID 3018),-1.06,active
MORF4 (GeneID 10934),-1.18,active
SCARB1 (GeneID 949),-2.98,active
ENTPD6 (GeneID 955),-0.52,inactive
S100A3 (GeneID 6274),-0.569,inactive
HNRNPUL2 (GeneID 221092),-0.405,inactive
ZNF572 (GeneID 137209),-1.03,active
CHMP5 (GeneID 51510),-0.0728,inactive
NTAQ1 (GeneID 55093),0.541,inactive
RHOBTB1 (GeneID 9886),-2.77,active
CTSL (GeneID 1514),0.779,inactive
TMEM169 (GeneID 92691),-1.03,active
IFITM1 (GeneID 8519),0.603,inactive
HOMER1 (GeneID 9456),-1.59,active
SLC41A1 (GeneID 254428),1.37,active
EAF2 (GeneID 55840),1.29,active
MALL (GeneID 7851),-1.06,active
EHBP1 (GeneID 23301),0.64,inactive
KCTD9 (GeneID 54793),0.918,inactive
ENO2 (GeneID 2026),0.586,inactive
TNIP3 (GeneID 79931),-1.89,active
GCLC (GeneID 2729),-0.515,inactive
DPPA4 (GeneID 55211),-1.22,active
TPPP3 (GeneID 51673),0.432,inactive
LRRC42 (GeneID 115353),-1.73,active
PISD (GeneID 23761),-0.558,inactive
CC2D2A (GeneID 57545),-0.694,inactive
SELPLG (GeneID 6404),-2.36,active
AHRR (GeneID 57491),0.237,inactive
BTF3L4 (GeneID 91408),-2.07,active
H1-7 (GeneID 341567),0.414,inactive
WDR12 (GeneID 55759),1.28,active
ZG16 (GeneID 653808),-0.892,inactive

Sorted by “z-score vs non-targeting control” (high to low): some entries from above
gene symbol,z-score vs non-targeting control,outcome
NEUROG3 (GeneID 50674),2.36,active
EIF4G1 (GeneID 1981),1.14,active
SYT8 (GeneID 90019),0.188,inactive
RBMS1 (GeneID 5937),-0.359,inactive
NOMO3 (GeneID 408050),-0.575,inactive
